{"source": "paper PMC4115230", "about": "“Lipid–Protein Nanodiscs Offer New Perspectives for Structural and Functional Studies of Water-Soluble Membrane-Active Peptides” (Acta Naturae, 2014)", "molecules": {"B1": {"name": "neurotoxin II (peptide)", "chain": "LECHNQQSSQPPTTKTCSGETNCYKKWWSDHRGTIIERGCGCPKVKPGVNLNCCRTDRCNN"}}, "system": "LPN/POPC/DOPS (4 : 1)", "assay": "1H,15N chemical shift comparison of NT II in water and in complex with LPN", "details": "aqueous environment vs LPN complex", "data": [{"molecule": "B1", "values": [{"measurement": "changes in spatial structure upon complex formation", "setting": "1H and 15N chemical shifts", "value": "no significant changes in the spatial structure"}, {"measurement": "residue with chemical shift changes exceeding 0.03 (1H) and 0.2 (15N) ppm", "setting": "data not shown", "value": "only for one Arg32 residue"}]}]}
